Tested on: CD4^+CD25^int memory T-cell pool
Details: pre, after DAB389IL-2, after 3 vaccination cycles

## denileukin diftitox [DAB389IL-2]
  frequencies of recall antigen-specific Interferon-γ secreting T cells: did not reveal any changes
